The species entered for one experiment is Rattus norvegicus. The experiment in a line: Selectivity ratio of IC50 for rat alpha7 nACh receptor to IC50 for rat alpha9alpha10 nACh receptor.
Experiment [1] has as its target Nicotinic acetylcholine receptor alpha9/alpha10 (Rattus norvegicus) (UniProt P43144+Q9JLB5). The experiment is described as follows: Antagonist activity at rat alpha9alpha10 nACh receptor expressed in Xenopus oocyte assessed as inhibition of acetylcholine-induced response at -70 mV holding potential by measuring ratio of IC50 by voltage-clamp based electrophysiological assay relative to GeXIVA. It is filed as cell-based. Conditions: filed as antagonist.

By UniProt entry, the sequences of proteins in these tests, tags left out. Where a name states a change or a piece, a line headed by the entry shows the natural chain unless it says otherwise.
UniProt P43144: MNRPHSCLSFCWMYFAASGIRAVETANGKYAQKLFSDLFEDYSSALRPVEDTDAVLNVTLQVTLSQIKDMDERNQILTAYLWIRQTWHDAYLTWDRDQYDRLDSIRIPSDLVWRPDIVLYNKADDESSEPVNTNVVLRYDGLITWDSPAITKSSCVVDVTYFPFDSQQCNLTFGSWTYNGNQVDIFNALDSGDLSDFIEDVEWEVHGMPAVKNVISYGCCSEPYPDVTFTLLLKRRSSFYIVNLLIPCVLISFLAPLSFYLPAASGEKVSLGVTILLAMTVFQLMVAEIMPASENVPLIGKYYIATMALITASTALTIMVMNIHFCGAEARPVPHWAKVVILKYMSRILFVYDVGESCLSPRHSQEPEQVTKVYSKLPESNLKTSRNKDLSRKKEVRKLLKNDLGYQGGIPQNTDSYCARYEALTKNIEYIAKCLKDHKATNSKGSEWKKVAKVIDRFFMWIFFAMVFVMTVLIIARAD
UniProt Q9JLB5: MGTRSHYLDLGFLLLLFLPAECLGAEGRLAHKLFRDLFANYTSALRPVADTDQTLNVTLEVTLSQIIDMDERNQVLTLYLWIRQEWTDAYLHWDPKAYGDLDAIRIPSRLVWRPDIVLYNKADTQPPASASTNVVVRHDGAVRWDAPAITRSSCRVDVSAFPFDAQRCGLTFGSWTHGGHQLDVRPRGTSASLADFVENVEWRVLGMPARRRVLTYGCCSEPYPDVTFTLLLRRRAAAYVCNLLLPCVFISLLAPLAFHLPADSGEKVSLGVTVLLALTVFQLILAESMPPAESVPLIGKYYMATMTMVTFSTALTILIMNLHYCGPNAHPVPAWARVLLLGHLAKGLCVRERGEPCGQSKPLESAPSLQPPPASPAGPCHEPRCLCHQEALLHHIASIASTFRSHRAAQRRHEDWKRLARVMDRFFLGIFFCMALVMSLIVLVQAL
UniProt Q05941, whole entry, looked up: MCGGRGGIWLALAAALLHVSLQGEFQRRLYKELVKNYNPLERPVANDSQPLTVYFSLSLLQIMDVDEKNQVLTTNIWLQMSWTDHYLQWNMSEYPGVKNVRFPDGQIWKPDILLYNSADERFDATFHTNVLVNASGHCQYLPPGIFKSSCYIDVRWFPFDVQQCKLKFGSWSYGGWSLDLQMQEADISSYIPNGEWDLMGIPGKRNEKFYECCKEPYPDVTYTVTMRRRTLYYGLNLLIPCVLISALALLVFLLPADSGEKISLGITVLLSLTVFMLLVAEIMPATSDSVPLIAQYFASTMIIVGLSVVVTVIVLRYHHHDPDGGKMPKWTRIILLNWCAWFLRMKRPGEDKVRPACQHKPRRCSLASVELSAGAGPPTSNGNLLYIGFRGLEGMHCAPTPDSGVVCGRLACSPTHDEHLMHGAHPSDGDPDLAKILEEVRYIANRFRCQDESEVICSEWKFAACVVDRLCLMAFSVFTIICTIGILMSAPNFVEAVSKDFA

For experiment [2], the target named is Neuronal acetylcholine receptor subunit alpha-7 (Rattus norvegicus) (UniProt Q05941). The experiment in a line: Antagonist activity at rat alpha7 nACh receptor expressed in Xenopus oocyte assessed as inhibition of acetylcholine-induced response at -70 mV holding potential by measuring ratio of IC50 by voltage-clamp based electrophysiological assay relative to GeXIVA. Conditions: filed as antagonist.

For `CC[C@H](C)[C@@H]1NC(=O)[C@H](CCCNC(=N)N)NC(=O)[C@H](CCCNC(=N)N)NC(=O)[C@@H](NC(=O)[C@H](Cc2ccc(O)cc2)NC(=O)[C@H](C)NC(=O)[C@H](CCCNC(=N)N)NC(=O)[C@H](CCCNC(=N)N)NC(=O)[C@H](CCCNC(=N)N)NC(=O)[C@H](CC(=O)O)NC(=O)[C@H](Cc2ccc(O)cc2)NC(=O)[C@@H]2CCCN2C(=O)[C@H](CO)NC(=O)[C@H](CCCNC(=N)N)NC(=O)[C@@H]2CSSC[C@H](NC(=O)[C@@H](N)[C@@H](C)O)C(=O)N[C@@H](CCCNC(=N)N)C(=O)N[C@@H](CO)C(=O)N[C@@H](CO)C(=O)NCC(=O)N[C@@H](CCCNC(=N)N)C(=O)N[C@@H](Cc3ccc(O)cc3)C(=O)N2)CSSC[C@@H](C(=O)N[C@H](C(=O)O)C(C)C)NC(=O)[C@H](C)NC(=O)[C@H](CC(=O)O)NC(=O)[C@H]([C@@H](C)O)NC1=O`, the Ratio IC50 in the experiment filed under Rattus norvegicus amounted to 124; in experiment [1], 4.5; in experiment [2] it was 10.3. In the same order, the values of `CC[C@H](C)[C@@H]1NC(=O)[C@H](CCCNC(=N)N)NC(=O)[C@H](CCCNC(=N)N)NC(=O)[C@@H](NC(=O)[C@H](Cc2ccc(O)cc2)NC(=O)[C@H](CCCNC(=N)N)NC(=O)[C@H](CCCNC(=N)N)NC(=O)[C@H](CCCNC(=N)N)NC(=O)[C@H](CCCNC(=N)N)NC(=O)[C@H](CC(=O)O)NC(=O)[C@H](Cc2ccc(O)cc2)NC(=O)[C@@H]2CCCN2C(=O)[C@H](CO)NC(=O)[C@H](CCCNC(=N)N)NC(=O)[C@@H]2CSSC[C@H](NC(=O)[C@H](C)N)C(=O)N[C@@H](CCCNC(=N)N)C(=O)N[C@@H](CO)C(=O)N[C@@H](CO)C(=O)NCC(=O)N[C@@H](CCCNC(=N)N)C(=O)N[C@@H](Cc3ccc(O)cc3)C(=O)N2)CSSC[C@@H](C(=O)N[C@H](C(=O)O)C(C)C)NC(=O)[C@H](C)NC(=O)[C@H](CC(=O)O)NC(=O)[C@H]([C@@H](C)O)NC1=O` are 140, 0.7 and 1.7. On the same counts, the results for `CC[C@H](C)[C@@H]1NC(=O)[C@H](CCCNC(=N)N)NC(=O)[C@H](CCCNC(=N)N)NC(=O)[C@@H]2CSSC[C@H](NC(=O)[C@H](Cc3ccc(O)cc3)NC(=O)[C@H](CCCNC(=N)N)NC(=O)CNC(=O)[C@H](CO)NC(=O)[C@H](C)NC(=O)[C@H](CCCNC(=N)N)NC(=O)[C@@H](NC(=O)[C@@H](N)[C@@H](C)O)CSSC[C@@H](C(=O)N[C@H](C(=O)O)C(C)C)NC(=O)[C@H](C)NC(=O)[C@H](CC(=O)O)NC(=O)[C@H]([C@@H](C)O)NC1=O)C(=O)N[C@@H](CCCNC(=N)N)C(=O)N[C@@H](CO)C(=O)N1CCC[C@H]1C(=O)N[C@@H](Cc1ccc(O)cc1)C(=O)N[C@@H](CC(=O)O)C(=O)N[C@@H](CCCNC(=N)N)C(=O)N[C@@H](CCCNC(=N)N)C(=O)N[C@@H](CCCNC(=N)N)C(=O)N[C@@H](CCCNC(=N)N)C(=O)N[C@@H](Cc1ccc(O)cc1)C(=O)N2` are 241, 1.1 and 1.4. On the same counts, the results for `CC[C@H](C)[C@@H]1NC(=O)[C@H](CCCNC(=N)N)NC(=O)[C@H](CCCNC(=N)N)NC(=O)[C@@H]2CSSC[C@H](NC(=O)[C@H](Cc3ccc(O)cc3)NC(=O)[C@H](CCCNC(=N)N)NC(=O)CNC(=O)[C@H](CO)NC(=O)[C@H](CO)NC(=O)[C@H](CCCNC(=N)N)NC(=O)[C@@H](NC(=O)[C@@H](N)[C@@H](C)O)CSSC[C@@H](C(=O)N[C@H](C(=O)O)C(C)C)NC(=O)[C@H](C)NC(=O)[C@H](CC(=O)O)NC(=O)[C@H](C)NC1=O)C(=O)N[C@@H](CCCNC(=N)N)C(=O)N[C@@H](CO)C(=O)N1CCC[C@H]1C(=O)N[C@@H](Cc1ccc(O)cc1)C(=O)N[C@@H](CC(=O)O)C(=O)N[C@@H](CCCNC(=N)N)C(=O)N[C@@H](CCCNC(=N)N)C(=O)N[C@@H](CCCNC(=N)N)C(=O)N[C@@H](CCCNC(=N)N)C(=O)N[C@@H](Cc1ccc(O)cc1)C(=O)N2` are 198, 2.2 and 2.5. Consider `CC[C@H](C)[C@@H]1NC(=O)[C@H](CCCNC(=N)N)NC(=O)[C@H](CCCNC(=N)N)NC(=O)[C@@H]2CSSC[C@H](NC(=O)[C@H](Cc3ccc(O)cc3)NC(=O)[C@H](CCCNC(=N)N)NC(=O)CNC(=O)[C@H](CO)NC(=O)[C@H](CO)NC(=O)[C@H](CCCNC(=N)N)NC(=O)[C@@H](NC(=O)[C@@H](N)[C@@H](C)O)CSSC[C@@H](C(=O)N[C@H](C(=O)O)C(C)C)NC(=O)[C@H](C)NC(=O)[C@H](CC(=O)O)NC(=O)[C@H]([C@@H](C)O)NC1=O)C(=O)N[C@@H](CCCNC(=N)N)C(=O)N[C@@H](CO)C(=O)N1CCC[C@H]1C(=O)N[C@@H](Cc1ccc(O)cc1)C(=O)N[C@@H](CC(=O)O)C(=O)N[C@@H](CCCNC(=N)N)C(=O)N[C@@H](C)C(=O)N[C@@H](CCCNC(=N)N)C(=O)N[C@@H](CCCNC(=N)N)C(=O)N[C@@H](Cc1ccc(O)cc1)C(=O)N2`, for which, in experiment [1], the Ratio IC50 was found to be 5.2.

For the compound `CC[C@H](C)[C@@H]1NC(=O)[C@H](C)NC(=O)[C@H](CCCNC(=N)N)NC(=O)[C@@H]2CSSC[C@H](NC(=O)[C@H](Cc3ccc(O)cc3)NC(=O)[C@H](CCCNC(=N)N)NC(=O)CNC(=O)[C@H](CO)NC(=O)[C@H](CO)NC(=O)[C@H](CCCNC(=N)N)NC(=O)[C@@H](NC(=O)[C@@H](N)[C@@H](C)O)CSSC[C@@H](C(=O)N[C@H](C(=O)O)C(C)C)NC(=O)[C@H](C)NC(=O)[C@H](CC(=O)O)NC(=O)[C@H]([C@@H](C)O)NC1=O)C(=O)N[C@@H](CCCNC(=N)N)C(=O)N[C@@H](CO)C(=O)N1CCC[C@H]1C(=O)N[C@@H](Cc1ccc(O)cc1)C(=O)N[C@@H](CC(=O)O)C(=O)N[C@@H](CCCNC(=N)N)C(=O)N[C@@H](CCCNC(=N)N)C(=O)N[C@@H](CCCNC(=N)N)C(=O)N[C@@H](CCCNC(=N)N)C(=O)N[C@@H](Cc1ccc(O)cc1)C(=O)N2`, in experiment [1], the Ratio IC50 amounted to 11.6. As to `CC[C@H](C)[C@@H]1NC(=O)[C@H](CCCNC(=N)N)NC(=O)[C@H](CCCNC(=N)N)NC(=O)[C@@H]2CSSC[C@H](NC(=O)[C@H](Cc3ccc(O)cc3)NC(=O)[C@H](CCCNC(=N)N)NC(=O)CNC(=O)[C@H](CO)NC(=O)[C@H](CO)NC(=O)[C@H](CCCNC(=N)N)NC(=O)[C@@H](NC(=O)[C@@H](N)[C@@H](C)O)CSSC[C@@H](C(=O)N[C@H](C(=O)O)C(C)C)NC(=O)[C@H](C)NC(=O)[C@H](CC(=O)O)NC(=O)[C@H]([C@@H](C)O)NC1=O)C(=O)N[C@@H](CCCNC(=N)N)C(=O)N[C@@H](CO)C(=O)N1CCC[C@H]1C(=O)N[C@@H](Cc1ccc(O)cc1)C(=O)N[C@@H](CC(=O)O)C(=O)N[C@@H](CCCNC(=N)N)C(=O)N[C@@H](CCCNC(=N)N)C(=O)N[C@@H](CCCNC(=N)N)C(=O)N[C@@H](C)C(=O)N[C@@H](Cc1ccc(O)cc1)C(=O)N2`, the Ratio IC50 in experiment [1] is 1.7. On the same count and under the same terms, under `CC[C@H](C)[C@@H]1NC(=O)[C@H](CCCNC(=N)N)NC(=O)[C@H](C)NC(=O)[C@@H]2CSSC[C@H](NC(=O)[C@H](Cc3ccc(O)cc3)NC(=O)[C@H](CCCNC(=N)N)NC(=O)CNC(=O)[C@H](CO)NC(=O)[C@H](CO)NC(=O)[C@H](CCCNC(=N)N)NC(=O)[C@@H](NC(=O)[C@@H](N)[C@@H](C)O)CSSC[C@@H](C(=O)N[C@H](C(=O)O)C(C)C)NC(=O)[C@H](C)NC(=O)[C@H](CC(=O)O)NC(=O)[C@H]([C@@H](C)O)NC1=O)C(=O)N[C@@H](CCCNC(=N)N)C(=O)N[C@@H](CO)C(=O)N1CCC[C@H]1C(=O)N[C@@H](Cc1ccc(O)cc1)C(=O)N[C@@H](CC(=O)O)C(=O)N[C@@H](CCCNC(=N)N)C(=O)N[C@@H](CCCNC(=N)N)C(=O)N[C@@H](CCCNC(=N)N)C(=O)N[C@@H](CCCNC(=N)N)C(=O)N[C@@H](Cc1ccc(O)cc1)C(=O)N2` stands 2.4. Same read-out and setting: under `CC[C@H](C)[C@@H]1NC(=O)[C@H](CCCNC(=N)N)NC(=O)[C@H](CCCNC(=N)N)NC(=O)[C@@H]2CSSC[C@H](NC(=O)[C@H](Cc3ccc(O)cc3)NC(=O)[C@H](C)NC(=O)CNC(=O)[C@H](CO)NC(=O)[C@H](CO)NC(=O)[C@H](CCCNC(=N)N)NC(=O)[C@@H](NC(=O)[C@@H](N)[C@@H](C)O)CSSC[C@@H](C(=O)N[C@H](C(=O)O)C(C)C)NC(=O)[C@H](C)NC(=O)[C@H](CC(=O)O)NC(=O)[C@H]([C@@H](C)O)NC1=O)C(=O)N[C@@H](CCCNC(=N)N)C(=O)N[C@@H](CO)C(=O)N1CCC[C@H]1C(=O)N[C@@H](Cc1ccc(O)cc1)C(=O)N[C@@H](CC(=O)O)C(=O)N[C@@H](CCCNC(=N)N)C(=O)N[C@@H](CCCNC(=N)N)C(=O)N[C@@H](CCCNC(=N)N)C(=O)N[C@@H](CCCNC(=N)N)C(=O)N[C@@H](Cc1ccc(O)cc1)C(=O)N2` stands 3; under `CC[C@H](C)[C@@H]1NC(=O)[C@H](CCCNC(=N)N)NC(=O)[C@H](CCCNC(=N)N)NC(=O)[C@@H]2CSSC[C@H](NC(=O)[C@H](Cc3ccc(O)cc3)NC(=O)[C@H](CCCNC(=N)N)NC(=O)CNC(=O)[C@H](CO)NC(=O)[C@H](CO)NC(=O)[C@H](CCCNC(=N)N)NC(=O)[C@@H](NC(=O)[C@@H](N)[C@@H](C)O)CSSC[C@@H](C(=O)N[C@H](C(=O)O)C(C)C)NC(=O)[C@H](C)NC(=O)[C@H](CC(=O)O)NC(=O)[C@H]([C@@H](C)O)NC1=O)C(=O)N[C@@H](CCCNC(=N)N)C(=O)N[C@@H](CO)C(=O)N1CCC[C@H]1C(=O)N[C@@H](Cc1ccc(O)cc1)C(=O)N[C@@H](CC(=O)O)C(=O)N[C@@H](CCCNC(=N)N)C(=O)N[C@@H](CCCNC(=N)N)C(=O)N[C@@H](C)C(=O)N[C@@H](CCCNC(=N)N)C(=O)N[C@@H](Cc1ccc(O)cc1)C(=O)N2`, 3.6.

The values are drawn from ChEMBL document CHEMBL5346973 (J Med Chem, 2023).
